The nature of series [1]: Metabolic stability in mouse liver microsomes. In general terms: Microsomes from liver hold many membrane-bound enzymes, among them those of drug oxidation.
The next series concerns the target SARS-CoV-2 Mpro (Severe acute respiratory syndrome coronavirus 2 (2019-nCoV) (SARS-CoV-2), UniProt P0DTD1). The conditions noted are these: read-out: MPro IC50.

`O=C(CN1C(=O)[C@@H](NC(=O)c2cc3ccccc3cn2)COc2ccccc21)N[C@@H](C[C@@H]1CCNC1=O)C(=O)COC(=O)c1c(Cl)cccc1Cl`: the “half-life (T1/2)” value in series [1] is “less than 2 minutes”. Also, the half-inhibitory concentration (IC50) (commonly the midpoint of a concentration-inhibition curve) on SARS-CoV-2 Mpro came to 580 nM.

The values are drawn from US20250092029A1 (THE WISTAR INSTITUTE OF ANATOMY AND BIOLOGY, priority 2022, published 2025).
